# PSTVd stem 3 mutant pool in Nicotiana benthamiana

Values reported by Wu et al. 2024 (doi:10.1371/journal.ppat.1012142).

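A pool of all variants was put on leaves of three Nicotiana benthamiana plants. Samples came from the inoculated region at 5 days, the leaf margin at 10 and upper systemic leaves at 12.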

PSTVd intermediate strain, stem 3: wild type GUGGUUCCGGAACCGC, pool pattern GUGGUUCCGNANNCNN; upper and lower strand joined, each 5' to 3', the first 8 letters being the upper strand.

Numbers give reads per thousand; 0 = not seen among the reads, higher = more abundant. Each site shows the three plants. "Pool" is the share in the plasmid pool used as inoculum, on the same scale. The inoculated region was read from the minus strand, the other sites from the plus strand. IR is the inoculated region, LM the leaf margin, Sys the systemic leaves. With 27,691-54,225 reads a sample, very low values are single reads. Sequences that differ at fixed positions probably stem from PCR or sequencing errors, and defective variants can be carried along by functional ones. Wild type was 17.3 per thousand in the pool and the most common sequence in every sample (inoculated region 330, 345, 235; leaf margin 794, 766, 816; systemic leaves 830, 792, 869).

sequence | pool | IR | LM | Sys
GUGGUUCAGGAACCGC | 0.0154 | 0.133 0.216 0.108 | 0.878 0.859 0.794 | 0.746 0.572 0.462
GUGGUUCCACAGUUGG | 0.816 | 0.400 0.367 0.838 | 1.73 0.763 0.361 | 1.19 1.24 0.608
GUGGUUCCGAAACCGC | 1.02 | 13.7 21.6 44.6 | 11.6 8.40 2.89 | 36.1 39.0 23.1
GUGGUUCCGAAAUCUU | 1.46 | 1.33 1.06 1.24 | 1.76 1.34 0.397 | 1.21 1.40 0.803
GUGGUUCCGAACACUU | 1.03 | 1.07 0.582 0.622 | 0 1.27 0.397 | 0 0 0
GUGGUUCCGAACCCCC | 0.816 | 0.480 0.539 0.243 | 0.0283 0.0318 0 | 0 0 0
GUGGUUCCGAACGCCA | 0.708 | 0.400 0.518 0.351 | 0 0 0.0361 | 0 0 0
GUGGUUCCGAACUCAA | 0.862 | 0.800 0.604 0.784 | 0.0283 1.08 0.181 | 0 0 0
GUGGUUCCGAACUCGG | 0.908 | 0.826 0.733 0.811 | 0 0 0 | 0 0 0
GUGGUUCCGAAGACUA | 0.769 | 0.640 0.539 0.757 | 0 0.0318 0.469 | 0 0 0
GUGGUUCCGAAGCCAG | 0.954 | 0.933 0.712 0.919 | 0 0.0318 0 | 1.25 1.07 0.949
GUGGUUCCGAAGCCUG | 0.831 | 1.71 1.34 1.84 | 0.737 0 0.758 | 0 0 0
GUGGUUCCGAAGGCGU | 0.631 | 0.933 0.539 1.05 | 0 0.859 0.217 | 0 0 0
GUGGUUCCGAAGGCUC | 0.785 | 1.04 0.949 0.784 | 0.0567 0.0636 0.506 | 0 0 0
GUGGUUCCGAAUCCCC | 0.800 | 0.400 0.280 0.216 | 0 0.0318 0 | 0 0 0
GUGGUUCCGACGCCAA | 0.400 | 0.746 0.863 1.38 | 1.27 1.37 0.722 | 1.17 1.27 0.608
GUGGUUCCGCAAACCA | 0.800 | 0.453 0.302 0.351 | 0 0.0636 0 | 0 0 0
GUGGUUCCGCAAGCAA | 0.923 | 0.320 0.302 0.135 | 0 0.0318 0.0361 | 0 0 0
GUGGUUCCGCAAGCCC | 0.862 | 0.320 0.367 0.405 | 0 0 0.0361 | 0 0 0
GUGGUUCCGCAAGCGC | 1.08 | 0.506 0.582 0.405 | 0.0283 0.0318 0.0722 | 0 0 0.146
GUGGUUCCGCAAUCAG | 0.985 | 0.560 0.668 0.649 | 0 1.05 0.325 | 0 0 0
GUGGUUCCGCAAUCCG | 0.985 | 0.267 0.0863 0.378 | 0 0.0318 0.0361 | 0 0 0
GUGGUUCCGCACCCAU | 0.769 | 0.853 0.647 0.919 | 0 0 0.181 | 0 0 0
GUGGUUCCGCACGCGA | 1.03 | 0.373 0.302 0.270 | 0.0283 0 0 | 0 0 0
GUGGUUCCGCAGCCAU | 0.769 | 1.01 0.927 0.811 | 0 1.24 0.469 | 0 0 0
GUGGUUCCGCAUACGC | 0.739 | 0.506 0.323 0.297 | 0 0 0.0361 | 0 0 0
GUGGUUCCGCAUACUG | 1.54 | 0.800 0.712 0.676 | 0 0.0636 0 | 0.354 0 0
GUGGUUCCGCAUGCCG | 0.893 | 0.373 0.431 0.270 | 0 0.0318 0 | 0 0 0
GUGGUUCCGGAAACUA | 1.28 | 0.480 0.345 0.243 | 0 0 0 | 0.0373 0 0
GUGGUUCCGGAAGCGG | 0.846 | 0.373 0.345 0.270 | 0 0 0.0722 | 0 0 0
GUGGUUCCGGACACAA | 0.831 | 0.187 0.173 0.324 | 0 0.0318 0.0361 | 0 0 0
GUGGUUCCGGACACAG | 0.646 | 0.400 0.388 0.297 | 0.0283 0.0954 0 | 0 0 0
GUGGUUCCGGACGCCG | 0.893 | 0.320 0.561 0.324 | 0 0.0318 0.0361 | 0 0 0
GUGGUUCCGGACGCUU | 0.923 | 0.293 0.367 0.243 | 0.0283 0.0318 0 | 0 0 0
GUGGUUCCGGACUCUC | 1.11 | 1.28 1.21 2.00 | 0.397 0 0.686 | 0 0 0
GUGGUUCCGGAGGCUU | 1.03 | 0.800 0.647 0.973 | 0 0.891 0.397 | 0 0 0
GUGGUUCCGGAGUCGU | 0.800 | 0.826 0.819 0.540 | 0 0 0 | 0 0 0
GUGGUUCCGGAUCCCA | 0.739 | 0.347 0.323 0.243 | 0 0 0.0361 | 0 0 0
GUGGUUCCGGAUCCUC | 0.816 | 0.480 0.194 0.243 | 0 0 0 | 0 0.0184 0
GUGGUUCCGGAUCCUU | 1.11 | 0.267 0.108 0.243 | 0.0567 0.0318 0 | 0 0 0
GUGGUUCCGGAUGCCC | 0.769 | 0.453 0.474 0.162 | 0 0.0636 0 | 0 0 0
GUGGUUCCGUAAACUC | 0.893 | 0.373 0.388 0.270 | 0.0283 0 0 | 0 0 0
GUGGUUCCGUAAGCUA | 0.970 | 0.480 0.237 0.135 | 0 0 0 | 0 0 0
GUGGUUCCGUACCCCC | 1.28 | 0.426 0.518 0.405 | 0.0283 0.0636 0.0361 | 0 0 0
GUGGUUCCGUACCCUU | 0.754 | 0.267 0.474 0.216 | 0 0 0.0361 | 0 0 0
GUGGUUCCGUACGCAC | 1.11 | 0.347 0.388 0.216 | 0 0.0318 0.0361 | 0 0 0
GUGGUUCCGUACGCCG | 0.785 | 0.400 0.410 0.324 | 0.0283 0 0.0361 | 0 0 0
GUGGUUCCGUACGCUC | 1.12 | 0.320 0.345 0.243 | 0 0 0 | 0 0 0
GUGGUUCCGUACGCUG | 0.970 | 0.453 0.323 0.324 | 0 0 0 | 0 0 0
GUGGUUCCGUACGCUU | 0.739 | 0.347 0.323 0.297 | 0.0283 0 0.0361 | 0 0 0
GUGGUUCCGUACUCUC | 0.862 | 0.480 0.431 0.270 | 0 0 0.0361 | 0 0 0
GUGGUUCCGUAGGCAA | 0.800 | 1.04 0.561 0.865 | 0 0.0318 0.433 | 0 0 0
GUGGUUCCGUAGGCGC | 0.877 | 0.267 0.323 0.513 | 0 0.0318 0 | 0 0 0
GUGGUUCCGUAUACAC | 0.923 | 0.320 0.453 0.135 | 0 0 0 | 0 0 0
GUGGUUCCGUAUCCCG | 1.08 | 0.213 0.453 0.351 | 0.0567 0.0636 0 | 0 0 0
GUGGUUCCGUAUCCGC | 0.877 | 0.320 0.302 0.324 | 0 0.0318 0.0361 | 0 0.0369 0
GUGGUUCCGUAUGCGG | 0.693 | 0.267 0.194 0.108 | 0.0283 0 0 | 0 0 0
GUGGUUCCGUAUUCAG | 0.816 | 0.933 0.927 0.757 | 0.0283 0.0954 0.325 | 0.0746 0 0
GUGGUUCCGUAUUCGU | 0.877 | 1.52 1.34 2.32 | 0.708 0 0.650 | 0 0 0
GUGGUUCCGUAUUCUG | 2.39 | 1.28 1.36 1.41 | 0 0.0318 0 | 0.298 0.0738 0.146

Extract of 8 entries:

| sequence | pool | IR | LM | Sys |
|---|---|---|---|---|
| GUGGUUCCGUACGCAC | 1.11 | 0.347 0.388 0.216 | 0 0.0318 0.0361 | 0 0 0 |
| GUGGUUCCGUAGGCAA | 0.800 | 1.04 0.561 0.865 | 0 0.0318 0.433 | 0 0 0 |
| GUGGUUCCGCAAGCCC | 0.862 | 0.320 0.367 0.405 | 0 0 0.0361 | 0 0 0 |
| GUGGUUCCGGAUGCCC | 0.769 | 0.453 0.474 0.162 | 0 0.0636 0 | 0 0 0 |
| GUGGUUCCGGACACAG | 0.646 | 0.400 0.388 0.297 | 0.0283 0.0954 0 | 0 0 0 |
| GUGGUUCCGCAAGCAA | 0.923 | 0.320 0.302 0.135 | 0 0.0318 0.0361 | 0 0 0 |
| GUGGUUCCGUACCCUU | 0.754 | 0.267 0.474 0.216 | 0 0 0.0361 | 0 0 0 |
| GUGGUUCCGCAUACGC | 0.739 | 0.506 0.323 0.297 | 0 0 0.0361 | 0 0 0 |